The experiment deals with HCV genotype-1. Description: Clinical study with treatment-naive patients: monotherapy 14 days, then triple combination with P+R 14 days. As to conditions: once-daily monotherapy. As to the method:
Plasma HCV-RNA levels were measured with Roche COBAS® TaqMan® assay (LLOQ 25 IU/m L). After Day 28, at the discretion of the investigator, patients could continue to receive standard of care treatment, i.e., P+R.

Where a name gives a salt, the structure may show the parent alone.

Regarding `C=C[C@@H]1C[C@]1(NC(=O)[C@@H]1C[C@H](Oc2cc(-c3csc(NC(=O)C(C)C)n3)nc3c(Br)c(OC)ccc23)CN1C(=O)[C@@H](NC(=O)OC1CCCC1)C(C)(C)C)C(=O)O` [Compound (1) sodium salt], the “Onset of anti-viral resistance formation and increase in viral load” value was 5 to 6 days.

Values taken from patent US8822496B2, “Dosage regimens for HCV combination therapy” (priority 2009, dated 2014).
